# Fitness of HIV-1 1203 Vif variants in SupT1-APOBEC3G cells

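Pooled viruses with one designed change each in Vif went through two 72 h rounds in SupT1 cells expressing APOBEC3G. Each of three replicates was sequenced after round two and set against the merged round-one pool.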

Protein: Vif of HIV-1 1203 (a subtype B primary isolate). Residues 12-115 were scanned and are shown below; the first letter is residue 12.
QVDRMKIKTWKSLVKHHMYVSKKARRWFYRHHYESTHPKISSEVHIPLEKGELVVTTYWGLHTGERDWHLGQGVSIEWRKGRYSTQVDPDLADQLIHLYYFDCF

Values are log2 enrichment relative to wild type (0); lower means weaker defence against APOBEC3G and poorer growth. A change reads original residue, position, new residue. All changes here are to leucine. The median of three replicates is given. Input reads are the counts in the merged round-one pool, before selection. Positive scores are uncertain; some enriched variants did not exclude APOBEC3G in a separate test. Some changes are missing from the data or left out. The scan is noisy: the rank correlation of replicates is about 0.4 to 0.65, and variants with under about 50 input reads tend to read too high.

| change | input reads | log2 enrichment (median) |
|---|---|---|
| R15L | 236 | -2.10 |
| M16L | 515 | -1.78 |
| H27L | 295 | -2.24 |
| H28L | 102 | -3.11 |
| K34L | 889 | -0.43 |
| R36L | 37 | -3.28 |
| W38L | 19 | 3.66 |
| R41L | 131 | 1.72 |
| Y44L | 278 | -2.02 |
| E54L | 18 | 0.03 |
| I57L | 152 | -1.82 |
| P58L | 294 | -1.25 |
| E63L | 496 | -1.69 |
| T67L | 552 | -2.41 |
| T68L | 17 | -1.10 |
| T74L | 23 | 0.28 |
| D78L | 447 | -2.61 |
| Q83L | 36 | -0.43 |
| V85L | 193 | -1.80 |
| R90L | 131 | -2.27 |
| K91L | 179 | 0.13 |
| G92L | 16 | -0.65 |
| Y94L | 243 | -2.28 |
| Q97L | 103 | -3.50 |
| P100L | 31 | -1.40 |
| Q105L | 154 | -1.77 |
| H108L | 217 | -3.55 |
| F112L | 115 | 1.96 |
| C114L | 228 | -1.74 |

The last 2 entries again:

change	input reads	log2 enrichment (median)
F112L	115	1.96
C114L	228	-1.74

From the data files of Langley et al. 2025, preprint, doi:10.1101/2025.10.20.683452.